Measured values taken from article PMC3855626 (Biochemistry, 2013).

How the values were obtained:
[1] = tested on: M1 – M4 muscarinic receptors; assay type: binding, human
[2] = tested on: M1 muscarinic receptors in sympathetic ganglia; details: in vivo, iv; cited from earlier work

## C[N+](C)(C)CC#CCOC(=O)Nc1cccc(Cl)c1.[Cl-] [McN-A-343, [4-[[N-(3-chlorophenyl)carbamoyl]oxy]-2-butynyl] trimethylammonium chloride]
[1]
  Hill coefficients of the competition curves: approximately equal to one
[2]
  blood pressure response: elicits a pressor response
